A mixed list of measured activities; the numbers were collected in NIAID ChemDB.

Shared fields: whole-cell or culture tests; organism: Aspergillus niger

A number after MIC or MFC names an inhibition level or a share of isolates. Zones are inhibition diameters on agar. Percent inhibition refers to the dose given; in toxicity tests it is the harm to the cells. Rows are shuffled and stem from different studies.

CSc1ccc(C2CC(c3ccccc3Cl)=NN2c2ccccc2)cc1 ; strain: NCIM 596 ; dose: 2000 µg/mL ; endpoint: inhibition ; read by: broth dilution ; result: 98.33%
O=C(NN=Cc1ccc(O)cc1)c1snnc1C(F)(F)F ; strain: MTCC 1344 ; dose: 100 µg/mL ; endpoint: zone ; read by: agar diffusion / agar ; result: 0 mm
COc1ccc(N2CCN(c3nc4ccc5oc(=O)ccc5c4s3)CC2)cc1 ; strain: MTCC 282 ; endpoint: MIC100 ; result: 100 µg/mL
O=C(NN=C1CCCC1)c1snnc1C(F)(F)F ; strain: MTCC 1344 ; dose: 150 µg/mL ; endpoint: zone ; read by: agar diffusion / agar ; result: 0 mm
Cc1ccccc1-[n+]1noc([O-])c1C(=O)CSc1nc2ccccc2[nH]1 ; dose: 20 µg/mL ; endpoint: inhibition ; read by: agar diffusion ; result: 0%
CC(=O)CC(O)c1coc2cc(O)c(O)c(C(=O)O)c2c1=O ; dose: 200 µg/mL ; endpoint: inhibition ; read by: absorbance ; result: 59.95%
CC(C)N1CCN(c2nc3ccc4oc(=O)ccc4c3s2)CC1 ; strain: MTCC 282 ; endpoint: MIC100 ; result: 100 µg/mL
CS(=O)(=O)c1nc(N)c(C#N)c(-c2ccc(Cl)cc2)n1 ; strain: MTCC 282 ; dose: 50 µg/mL ; endpoint: zone ; read by: agar diffusion ; result: 19 mm
O=C(NN=Cc1ccc(Br)cc1)c1snnc1C(F)(F)F ; strain: MTCC 1344 ; dose: 100 µg/mL ; endpoint: zone ; read by: agar diffusion / agar ; result: 0 mm
O=c1ccc2c(ccc3nc(N4CCC(Cc5ccccc5)CC4)sc32)o1 ; strain: MTCC 282 ; endpoint: MIC100 ; result: 200 µg/mL
COc1cccc(C2=NN(c3ccccc3)C(c3ccc(SC)cc3)C2)c1 ; strain: NCIM 596 ; dose: 2000 µg/mL ; endpoint: inhibition ; read by: broth dilution ; result: 90.14%
Cc1ccc(-[n+]2noc([O-])c2C(=O)CSc2nc3ccccc3[nH]2)cc1C ; dose: 20 µg/mL ; endpoint: inhibition ; read by: agar diffusion ; result: 0%
C/C(=N\NC(=S)Nc1cccc(Cl)c1)c1c(O)ccc2c(C)cc(=O)oc12 ; dose: 25 µg/mL ; endpoint: inhibition ; read by: agar diffusion / agar ; result: 51.91%
CS(=O)(=O)C1=NC(c2cccc3cc4ccccc4cc23)C(C#N)=C(N)N1 ; strain: MTCC 282 ; dose: 50 µg/mL ; endpoint: zone ; read by: agar diffusion ; result: 19 mm
CSc1ccc(C2CC(c3cccc(Br)c3)=NN2c2ccccc2)cc1 ; strain: NCIM 596 ; dose: 2000 µg/mL ; endpoint: inhibition ; read by: broth dilution ; result: 64.62%
O=C(CSc1nc2ccccc2[nH]1)c1c([O-])on[n+]1-c1ccc(Cl)cc1 ; dose: 20 µg/mL ; endpoint: inhibition ; read by: agar diffusion ; result: 0%
C[C@H]1Cc2oc3cc(O)c(O)cc3c(=O)c2[C@H](O)O1 ; dose: 200 µg/mL ; endpoint: inhibition ; read by: absorbance ; result: 0%
Cc1ccc(-[n+]2noc([O-])c2C(=O)CSc2nc3ccccc3[nH]2)cc1 ; dose: 20 µg/mL ; endpoint: inhibition ; read by: agar diffusion ; result: 0%
CS(=O)(=O)c1nc(N)c(C#N)c(-c2ccccc2Cl)n1 ; strain: MTCC 282 ; dose: 25 µg/mL ; endpoint: zone ; read by: agar diffusion ; result: 18 mm
Cn1c(=O)ccc2c3sc(N4CCN(c5ccccc5F)CC4)nc3ccc21 ; strain: MTCC 282 ; endpoint: MIC100 ; result: 100 µg/mL
Cc1cc(C=Nc2ccc(N=Cc3cc(C)cc(/C=N/Nc4nc5ccccc5s4)c3O)cc2)c(O)c(/C=C/Nc2nc3ccccc3s2)c1 ; dose: 25 µg/mL ; endpoint: inhibition ; read by: turbidity ; result: 37.74%
CC(=NNC(=O)c1snnc1C(F)(F)F)c1ccccc1 ; strain: MTCC 1344 ; dose: 150 µg/mL ; endpoint: zone ; read by: agar diffusion / agar ; result: 0 mm